Measured values published in article PMC7400135, “3-(5-Nitrofuran-2-yl)prop-2-en-1-one Derivatives, with Potent Antituberculosis Activity, Inhibit A Novel Therapeutic Target, Arylamine N-acetyltransferase, in Mycobacteria” (Antibiotics, 2020).

Key:
[1] = tested on: human monocyte THP-1 cell line; settings: for SI THP-1 / M. bovis BCG / SI THP-1 / Mtb H37Rv: GIC for the cell line divided by MIC for the bacteria
[2] = tested on: murine macrophage RAW 264.7 cell line; settings: for SI RAW 264.7 / M. bovis BCG / SI RAW 264.7 / Mtb H37Rv: GIC for the cell line divided by MIC for the bacteria

O=C(/C=C/c1ccc([N+](=O)[O-])o1)c1ccc(N2CCOCC2)cc1 [Compound 1]
SI THP-1 / MDR-TB [1]: 64 | SI THP-1 / M. bovis BCG [1]: 1042 | SI THP-1 / Mtb H37Rv [1]: 256 | SI RAW 264.7 / MDR-TB [2]: 128 | SI RAW 264.7 / M. bovis BCG [2]: 2083 | SI RAW 264.7 / Mtb H37Rv [2]: 512

O=C(/C=C/c1ccc([N+](=O)[O-])o1)c1ccc(N2CCCCC2)cc1 [Compound 2]
SI THP-1 / MDR-TB [1]: 32 | SI THP-1 / M. bovis BCG [1]: 8333 | SI THP-1 / Mtb H37Rv [1]: 2016 | SI RAW 264.7 / MDR-TB [2]: 64 | SI RAW 264.7 / Mtb H37Rv [2]: 4032

CCN(CC)c1ccc(C(=O)/C=C/c2ccc([N+](=O)[O-])o2)cc1 [Compound 3]
SI THP-1 / MDR-TB [1]: 32 | SI THP-1 / M. bovis BCG [1]: 520 | SI THP-1 / Mtb H37Rv [1]: 32 | SI RAW 264.7 / MDR-TB [2]: 64 | SI RAW 264.7 / M. bovis BCG [2]: 1042 | SI RAW 264.7 / Mtb H37Rv [2]: 64
